Pooled drug test results. Numbers come from NIAID ChemDB, via PubChem.

All rows: toxicity to cultured cells; cell line: U-937; measure: CC50

Conditions beyond the fields shown may differ between rows. CCn: concentration that lowers growth or viability of the cells by n%. Two numbers with a dash give a range or band. Blank or dashed fields: not listed here.

SMILES,read by,value
CCCN(C)C(=O)Oc1nsnc1-c1c(Cl)cccc1Cl,-,131 µM
COc1ccc(CN[C@@H](C(=O)N[C@H]2c3ccccc3C[C@H]2O)[C@H](O)[C@H](Cc2ccccc2)NC(=O)[C@@H](NC(=O)OCc2ccccc2)C(C)(C)C)cc1,-,10 µM
COC1CCC(OC2CC(C3(C)CCC4(CC(O)C(C)C(C(C)/C=C(\C)C(=O)C(C)CC(C)C(=O)O)O4)O3)OC3(OC(C4OC(O)(CO)C(C)CC4C)CC3C)C2C)OC1C,-,1.1 µg/mL
Cc1cn([C@H]2C[C@H](N=[N+]=[N-])[C@@H](CO)O2)c(=O)[nH]c1=O,MTT,30 µM
C=C(C)[C@]12C[C@@H](COC(=O)c3ccccc3)[C@@]34O[C@]5(O[C@@H]1[C@@H]3[C@@H]1O[C@]1(CO)[C@@H](O)[C@@]1(O)[C@H]4[C@H]([C@H](C)[C@@H]1OC(=O)c1ccccc1)[C@H](C)CCCCCC[C@H]5O)O2,luminescence,>2.5 µM
NOCc1c(F)cccc1Cl,-,44.8 µg/mL
CO[C@@H]1C[C@@H](C[C@H]2CC[C@H](C)[C@H]([C@@H](C)C(=O)O)O2)O[C@]2(O[C@](C)([C@H]3CC[C@@](C)([C@@H]4O[C@@H]([C@H]5O[C@@](O)(CO)[C@H](C)C[C@@H]5C)C[C@@H]4C)O3)C[C@H]2C)[C@@H]1C,-,0.4 µg/mL
Nc1nc(=O)n([C@@H]2CC[C@H](CO)O2)cc1F,-,25 µM
Cc1cn([C@H]2C[C@H](N=[N+]=[N-])[C@@H](CO)O2)c(=O)[nH]c1=O,-,7.5 µg/mL
CN(C)C(=O)O/N=C1\c2ccccc2-c2c1c(N1CCN(c3ccccn3)CC1)nc1ccc(Br)cc21,MTT,>10 µg/mL
CCCc1cc(=O)oc2c3c(c4c(c12)OC(C)(C)C=C4)O[C@H](C)[C@@H](C)[C@@H]3O,-,10–20 µM
COC1CCC(OC2CC(C)(C3CCC(C4OC(C)(O)C(C)CC4C)O3)OC2C2(C)CC(C)C3(OC(CC4OC(O)(C(C)C(=O)O)C(C)C(OC)C4OC)CC(OC)C3C)O2)OC1C,-,2.1 µg/mL
CS(=O)CCCCN=C=S,MTT,8.88 µM
Nc1nc(=O)n([C@H]2CO[C@@H](CO)S2)cc1F,-,>500 µM
Cc1cn([C@H]2C[C@H](N=[N+]=[N-])[C@@H](CO)O2)c(=O)[nH]c1=O,-,19.7 µg/mL
O=C(O)c1cc(O)cc(O)c1N=Nc1ccc(/C=C/c2ccc(N=Nc3c(O)cc(O)cc3C(=O)O)cc2S(=O)(=O)O)c(S(=O)(=O)O)c1,-,154 µg/mL
CCOC(=O)CNC(=O)N1CC=CC1=O,MTT / absorbance,324 µM
Nc1ccn([C@@H]2CO[C@H](CO)S2)c(=O)n1,-,22 µM
CC[C@@H](C(=O)[C@@H](C)[C@@H](O)[C@H](C)CCc1ccc(C)c(O)c1C(=O)O)[C@H]1O[C@](CC)([C@H]2CC[C@](O)(CC)[C@H](C)O2)C[C@@H]1C,-,1.35 µg/mL
CCCCCOc1c(C)c(O)c2c3c1C(=O)/C(C)=C/[C@@](C)(O)[C@H](O)[C@@H](C)[C@@H](O)[C@@H]1C(=O)O[C@@H](C(C)[C@H]1O)[C@H](C)/C=C\C=C(/C)C(=O)NC(=C(C)C3=O)C2=O,-,9 µg/mL
CCC(=O)O/N=C1\c2ccccc2-c2c1c(-n1ccnc1)nc1ccc(Br)cc21,MTT,>20 µg/mL
CCCc1cc(=O)oc2c3c(c4c(c12)OC(C)(C)C=C4)O[C@@H](C)[C@H](C)[C@@H]3O,-,10–20 µM
CC(C)(C)OC(=O)N1CCCC1C(=O)O/N=C1\c2ccccc2-c2c1c(N1CCN(c3ccccn3)CC1)nc1ccc(Br)cc21,MTT,>20 µg/mL
CC(=O)O[C@@H]1[C@H](OC(=O)CC(C)C)c2c(ccc3ccc(=O)oc23)OC1(C)C,-,>1.5 µM
NC(=O)c1ncn([C@@H]2O[C@H](CO)[C@@H](O)[C@H]2O)n1,-,>2 µM
COc1ccc(CN[C@@H](C(=O)N[C@H](C(=O)NCc2nc3ccccc3[nH]2)C(C)C)[C@H](O)[C@H](Cc2ccccc2)NC(=O)[C@@H](NC(=O)OCc2ccccc2)C(C)(C)C)cc1,-,12.2 µM
Nc1nc(NC2CC2)c2ncn([C@H]3C=C[C@@H](CO)C3)c2n1,-,310 µM
O=c1[nH]cnc2c1ncn2[C@H]1CC[C@@H](CO)O1,-,392 µM
CC[C@@]1(O)C(=O)OCc2c1cc1n(c2=O)Cc2cc3c([N+](=O)[O-])cccc3nc2-1,-,>0.05 µM
CCCCCCCCCCCCCC(=O)OC[C@@H](COP(=O)(O)OC[C@@H]1CC[C@H](n2ccc(N)nc2=O)O1)OC(=O)CCCCCCCCCCCCC,-,>71.4 µM
O=C(/C=C/c1ccco1)O/N=C1\c2ccccc2-c2c1c(N1CCN(c3ccccn3)CC1)nc1ccc(Br)cc21,MTT,>10 µg/mL
CCCN(C)C(=O)Oc1nsnc1-c1c(Cl)ccc(N)c1Cl,-,96 µM

Again, the opening 2 rows:

SMILES,read by,value
CCCN(C)C(=O)Oc1nsnc1-c1c(Cl)cccc1Cl,-,131 µM
COc1ccc(CN[C@@H](C(=O)N[C@H]2c3ccccc3C[C@H]2O)[C@H](O)[C@H](Cc2ccccc2)NC(=O)[C@@H](NC(=O)OCc2ccccc2)C(C)(C)C)cc1,-,10 µM